The subject of this assay is clinical isolate, N1283. It is filed as in vivo, Mycobacterium tuberculosis. Particulars: Study F; Mtb-N1283; 50 mg kg^-1 PO once daily, 2 weeks of treatment.

Values joined by “and” are separate entries in the source; they are usually repeats but may differ in a detail not shown here. Equal values may be shown once.

Take `CCc1nc2ncc(C)cn2c1C(=O)NCc1ccc(N2CCN(S(=O)(=O)C(F)(F)F)C=N2)c(F)c1` [JNJ-4052]: the “Log10 CFU counts in lung, individual mice” value is 5.15 Log10 CFU counts and 4.83 Log10 CFU counts and 5.30 Log10 CFU counts.

For the origin of these results see paper PMC12546632, “The role of cytochrome bc1 inhibitors in future tuberculosis treatment regimens” (Nature Communications, 2025).
